Compound potency records, mixed from different reports. Data source: NIAID ChemDB in PubChem.

Shared fields: growth or infection tests; agent: HIV-1; measure: fold resistance

Rows are shuffled and stem from different studies. Blank or dashed fields: not listed here. Fold resistance: result on the changed form divided by that on wild type.

smiles | changes | read by | strain | cell line | value
Cc1ccnc2c1NC(=O)c1cccnc1N2C1CC1 | RT-A98G | - | VAU (RT-A98G) | PBMC | 1
Cc1cc(S(N)(=O)=O)ccc1NC(=O)COc1ccc(Cl)cc1C(=O)c1cc(Cl)cc(C#N)c1 | RT-E138K | β-galactosidase | NNRTI-resistant (RT E138K) | MAGI | 2.5
Nc1ccn([C@H]2CC[C@@H](CO)O2)c(=O)n1 | RT-L100I Y181C | syncytia | IIIB TIBO R82913 STR-1 (RT L100I Y181C) | CEM | 0.8
CCCc1cc(=O)oc2c3c(c4c(c12)OC(C)(C)C=C4)O[C@H](C)[C@@H](C)[C@@H]3O | RT-L100I | cytopathic effect / XTT | IIIB(OC-R(I)) | CEM + CEM-SS | >22
Nc1ccn([C@H]2CC[C@@H](CO)O2)c(=O)n1 | RT-delta67 T69G | p24 | - | MT-2 | 2.2
Cc1ccnc2c1NC(=O)c1cccnc1N2C1CC1 | RT-Y181C | cytopathic effect / XTT | NL4-3 | CEM + CEM-SS | 65
CCn1c(=O)c(C)cn([C@@H]2O[C@H](CO[Si](C)(C)C(C)(C)C)C3(OS(=O)(=O)C=C3N)[C@H]2O[Si](C)(C)C(C)(C)C)c1=O | RT-E138K | syncytia | IIIB TSAO-T(RT-E138K) | CEM | >1670
Nc1nc2c(ncn2[C@H]2CO[C@@H](CO)O2)c(=O)[nH]1 | RT-K65R | - | - | - | 7
COC(=O)N[C@H](C(=O)N[C@@H](Cc1ccccc1)[C@@H](O)CN(Cc1ccc(-c2ccccn2)cc1)NC(=O)[C@@H](NC(=O)OC)C(C)(C)C)C(C)(C)C | L10I N37D G48V I54V L63P G73C I84V L90M | p24 / luminescence | NL4-3 | MT-4 | >213
COc1ccc(S(=O)(=O)N(CC(C)C)C[C@@H](O)[C@H](Cc2ccccc2)NC(=O)O[C@H]2CO[C@H]3OCC[C@H]32)cc1 | PR-L10R N37D M46I I62V L63P A71V G73S V77I V82T L90M I93L | p24 | Clinical isolate | PBMC | 1
Nc1nc(=O)n([C@@H]2CS[C@H](CO)O2)cc1F | RT-K65R Y115F | cytopathic effect / XTT | Site-directed mutant | MT-2 | 25.5
CCCN(C)C(=O)Oc1nsnc1-c1c(Cl)ccc(N)c1Cl | RT-V189I T240I | MTT | IIIB | MAGI | >526
CC(C)(c1ncc(-c2ccc(F)cc2)o1)N1CCN(C[C@@H](O)C[C@@H](Cc2nnco2)C(=O)N[C@H]2c3ccccc3OC[C@H]2O)[C@H](C(=O)NCC(F)(F)F)C1 | PR-L10I M36I N37D M46I R57K L63P A71V G73S I84V L90M I93L | p24 | V-18 Clinical isolate | MT-4 | 1
CCN1C(=O)N(Cc2ccccc2)S(=O)(=O)c2cscc21 | RT-Y188H | syncytia | - | CEM | >111
Cc1cn([C@H]2C=C[C@@H](CO)O2)c(=O)[nH]c1=O | RT-K103N | p24 | - | MT-2 | 3.6
CC(C)(c1ncc(-c2ccc(F)cc2)o1)N1CCN(C[C@@H](O)C[C@@H](Cc2nnc(-c3ccccc3)o2)C(=O)N[C@H]2c3ccccc3OC[C@H]2O)[C@H](C(=O)NCC(F)(F)F)C1 | PR-L10I N37S R41K M46I I54V I62V L63P A71V V77I V82A L90M I93L | p24 | Q-60 Clinical isolate | MT-4 | ≥2
Cc1cn([C@H]2C[C@H](N=[N+]=[N-])[C@@H](CO)O2)c(=O)[nH]c1=O | RES056 | MTT | - | MT-4 | 0.7
O=C1N(Cc2ccccc2)c2cscc2S(=O)(=O)N1Cc1ccccc1 | RT-V106A | syncytia | - | CEM | ≥5.78
CC(C)(C)NC(=O)[C@@H]1C[C@@H]2CCCC[C@@H]2CN1C[C@@H](O)[C@H](Cc1ccccc1)NC(=O)[C@H](CC(N)=O)NC(=O)c1ccc2ccccc2n1 | PR-L10I I15V K20R M36I M46L I54V K55R I62V L63P K70Q V82A L89M | p24 | Clinical isolate | PBMC | 3.7
Cc1cn([C@H]2C[C@H](N=[N+]=[N-])[C@@H](CO)O2)c(=O)[nH]c1=O | RT-L100I | cytopathic effect / XTT | NL4-3 | CEM + CEM-SS | 1
CCCc1nnc(C[C@H](C[C@H](O)CN2CCN(C(C)(C)c3ncc(-c4ccc(F)cc4)o3)C[C@H]2C(=O)NCC(F)(F)F)C(=O)N[C@H]2c3ccccc3OC[C@H]2O)o1 | PR-L10I M46I I54V Q58E L63P I64V V77I V82F I84V L90M I93L | p24 | K-60 Clinical isolate | MT-4 | 1
Cc1cc(C#N)cc(C)c1Oc1nc(Nc2ccc(C#N)cc2)ncc1SCC(=O)N1CCSCC1 | F227L V106A | MTT | - | MT-4 | 28.5
O=c1[nH]cnc2c1ncn2[C@H]1CC[C@@H](CO)O1 | RT-A98G V106I Y181C | - | BCF07 | PBMC | 0.588
CC(C)=CCN1Cc2cccc3[nH]c(=S)n(c23)C[C@@H]1C | RT-Y181C | cytopathic effect / XTT | IIIB(DPS-R(III)) | CEM + CEM-SS | 70
Nc1ncnc2c1ncn2[C@@H]1O[C@H](CO)C[C@@H]1F | RT-P119S | p24 | P119S(RT-P119S) | MT-2 | 4.6
Cc1cn([C@H]2C[C@H](N=[N+]=[N-])[C@@H](CO)O2)c(=O)[nH]c1=O | RT-M184V | p24 | HXB2-D184 (RT-M184V) | MT-4 | 1.2
Nc1ncnc2c1ncn2CC(CF)OCP(=O)(O)O | RT-L100I | syncytia | IIIB TIBO R82150-resistant (RT L100I) | CEM | 0.667
CC(C)CN(C[C@@H](O)[C@H](Cc1ccccc1)NC(=O)O[C@H]1CCOC1)S(=O)(=O)c1ccc(N)cc1 | L10F K20T D30N K45I A71V V77I | p24 / luminescence | NL4-3 | MT-4 | 1.6
CC(C)(c1ncc(-c2ccc(Cl)cc2)o1)N1CCN(C[C@@H](O)C[C@@H](Cc2nnco2)C(=O)N[C@H]2c3ccccc3OC[C@H]2O)[C@H](C(=O)NCC(F)(F)F)C1 | PR-L10I M36I N37D M46I R57K L63P A71V G73S I84V L90M I93L | p24 | V-18 Clinical isolate | MT-4 | 0.504
CC(C)=CCN1c2cc(Cl)cc3[nH]c(=S)n(c23)C[C@@H]1C | RT-K70R L100I | - | - | MT-4 | 1
Nc1ncnc2c1ncn2CCOCP(=O)(O)O | RT-Y181C | syncytia | IIIB nevirapine-resistant (RT Y181C) | CEM | 3.57
CC1=C(C(=O)Nc2ccc(Cl)c(C(=O)OC(C)C)c2)SCCO1 | RT-K103N Y181C | cytopathic effect / XTT | IIIB(A17(III)) | CEM + CEM-SS | >333
Nc1nc(NC2CC2)c2ncn([C@H]3C=C[C@@H](CO)C3)c2n1 | RT-K65R Y115F | cytopathic effect / XTT | Site-directed mutant | MT-2 | >8
CCN[C@H]1CO[C@@H]2OCC[C@H](OC(=O)N[C@@H](Cc3ccccc3)[C@H](O)CN(CC(C)C)S(=O)(=O)c3ccc4nc(NC5CC5)sc4c3)[C@@H]21 | L10I I15V K20R L24I V32I M36I M46I L63P K70Q V82A I84V L89M | p24 / luminescence | NL4-3 | MT-4 | 1.5
Cc1cn([C@H]2C[C@H](N=[N+]=[N-])[C@@H](CO)O2)c(=O)[nH]c1=O | RT-L74V | p24 | L74V(RT-L74V) | MT-2 | 1
CCN1C(=O)N(Cc2cccc(Cl)c2)S(=O)(=O)c2cscc21 | RT-L100I | syncytia | - | CEM | 3.27
Nc1ccn([C@H]2CC[C@@H](CO)O2)c(=O)n1 | RT-A98G K103R | - | BCF06 | PBMC | 1.07
Cc1c(O)cccc1C(=O)N[C@@H](CSc1ccccc1)[C@H](O)CN1C[C@H]2CCCC[C@H]2C[C@H]1C(=O)NC(C)(C)C | PR-L10I K14R R41K M46L I54V L63P A71V V82A L90M I93L | p24 | Clinical isolate | PBMC | >43.5
N#CCN1C(=O)N(Cc2ccccc2)S(=O)(=O)c2cscc21 | RT-Y188H | syncytia | - | CEM | 50
CC(C)(C)NC(=O)[C@@H]1CN(Cc2cccnc2)CCN1C[C@@H](O)C[C@@H](Cc1ccccc1)C(=O)N[C@H]1c2ccccc2C[C@H]1O | PR-L10I I15V K20R M36I M46L I54V K55R I62V L63P K70Q V82A L89M | p24 | Clinical isolate | PBMC | 37.7
Nc1ccn([C@H]2CC[C@@H](CO)O2)c(=O)n1 | RT-P119S L214F | p24 | RT P119S L214F | MT-2 | 2.4
CC(C)CN(C[C@@H](O)[C@H](Cc1ccccc1)NC(=O)[C@H](CC(N)=O)NC(=O)c1ccc2ccccc2n1)C(=O)NC(C)(C)C | PR-G48V I54V A71T V82A | - | RF | MT-2 | 33.8
c1ccc2c(c1)sc1nccn12 | RT-P236L | cytopathic effect / XTT | IIIB HEPT-resistant (IV) | CEM + CEM-SS | 0.2
Cc1cn([C@@H]2O[C@H](CO[Si](C)(C)C(C)(C)C)[C@@]3(OS(=O)(=O)C=C3N)[C@H]2O[Si](C)(C)C(C)(C)C)c(=O)[nH]c1=O | RT-L100I Y181C | syncytia | IIIB TIBO R82913 STR-1 (RT L100I Y181C) | CEM | 100
CN[C@H]1CO[C@@H]2OCC[C@H](OC(=O)N[C@@H](Cc3ccccc3)[C@H](O)CN(CC(C)C)S(=O)(=O)c3ccc4nc(NC5CC5)sc4c3)[C@@H]21 | L10I L33I M36I M46I I54V K55R I62V L63P A71V G73S V82T L90M I93L | p24 / luminescence | NL4-3 | MT-4 | 9
O=c1[nH]cnc2c1ncn2[C@H]1CC[C@@H](CO)O1 | RT-A62V V75I F77L F116Y Q151M | p24 | RT A62V/V75I/F77L/F116Y/Q151M | MT-2 | 13.3

The last 4 rows once more:

{"smiles": "c1ccc2c(c1)sc1nccn12", "changes": "RT-P236L", "read by": "cytopathic effect / XTT", "strain": "IIIB HEPT-resistant (IV)", "cell line": "CEM + CEM-SS", "value": "0.2"}
{"smiles": "Cc1cn([C@@H]2O[C@H](CO[Si](C)(C)C(C)(C)C)[C@@]3(OS(=O)(=O)C=C3N)[C@H]2O[Si](C)(C)C(C)(C)C)c(=O)[nH]c1=O", "changes": "RT-L100I Y181C", "read by": "syncytia", "strain": "IIIB TIBO R82913 STR-1 (RT L100I Y181C)", "cell line": "CEM", "value": "100"}
{"smiles": "CN[C@H]1CO[C@@H]2OCC[C@H](OC(=O)N[C@@H](Cc3ccccc3)[C@H](O)CN(CC(C)C)S(=O)(=O)c3ccc4nc(NC5CC5)sc4c3)[C@@H]21", "changes": "L10I L33I M36I M46I I54V K55R I62V L63P A71V G73S V82T L90M I93L", "read by": "p24 / luminescence", "strain": "NL4-3", "cell line": "MT-4", "value": "9"}
{"smiles": "O=c1[nH]cnc2c1ncn2[C@H]1CC[C@@H](CO)O1", "changes": "RT-A62V V75I F77L F116Y Q151M", "read by": "p24", "strain": "RT A62V/V75I/F77L/F116Y/Q151M", "cell line": "MT-2", "value": "13.3"}